We go through two sequences from patent US6544521B2, “Immunoreactive peptide CTL epitopes of human cytomegalovirus pp150” (City of Hope, priority 2000, dated 2003).

The data set relates to pp150-specific T cell clones. Nature of the data set: Chromium release assay with peptide-sensitized EBVLCL and pp150-specific CTL clones (epitope mapping). Type of data set: cell-based, human. Conditions: minimal cytotoxic epitope naturally processed from HCMV pp150.

The amount applied is not stated for every result.

Take “QTVTSTPVQGR (listed as Human cytomegalovirus) [SEQ ID NO: 2]”: the “HLA Allele Restriction Element” value is given as “HLA A*6801/2”.

Consider “TTVYPPSSTAK (listed as Human cytomegalovirus) [SEQ ID NO: 1]”, for which the “HLA Allele Restriction Element” value is listed as “HLA A*0301”.
